Pooled drug test results. Numbers come from NIAID ChemDB, via PubChem.

All rows: tests in culture; agent: HIV-1; read-out: fold resistance

Fold resistance: result on the changed form divided by that on wild type.

smiles	strain or isolate	method	changes	cells	result
Nc1ccn([C@H]2CC[C@@H](CO)O2)c(=O)n1	IIIB-Nevirapine(1.0)(RT-Y181C)	syncytia	RT-Y181C	CEM	0.8
COc1cc(C)nc(N2C(=O)CSC2c2c(Cl)cccc2Cl)n1		cytopathic effect	RT-E138K	CEM	1.7
O=c1[nH]cnc2c1ncn2[C@@H]1O[C@H](CO)C[C@@H]1F	P119S(RT-P119S)	p24	RT-P119S	MT-2	1.4
Cc1cn([C@H]2C[C@H](N=[N+]=[N-])[C@@H](CO)O2)c(=O)[nH]c1=O	IIIB	p24 / ELISA	L441P	MT-2	1.6
COC(=O)c1cc2c(c(OC)c1-c1ccc(N(C)C)cc1)OCO2	A17	antigen	K103N + Y181C	C8166	148
Cc1cn([C@H]2C[C@H](N=[N+]=[N-])[C@@H](CO)O2)c(=O)[nH]c1=O	CALO(RT-T139I)	cytopathic effect / XTT	RT-T139I	CEM + CEM-SS	0.2
Cc1cn([C@H]2C[C@H](N=[N+]=[N-])[C@@H](CO)O2)c(=O)[nH]c1=O	IIIB-TSAO-m3T(10)(RT-Y181C)	syncytia	RT-Y181C	CEM	0.667
CC(C)CN(C[C@@H](O)[C@H](Cc1ccccc1)NC(=O)O[C@H]1CCOC1)S(=O)(=O)c1ccc(N)cc1	Clinical isolate	p24	PR-L10I V11I T12E I15V L19I R41K M46L L63 A71T V82A L90M	PBMC	12.4
Cc1cn([C@H]2C[C@H](N=[N+]=[N-])[C@@H](CO)O2)c(=O)[nH]c1=O		cytopathic effect	RT-Y188H	CEM	0.57
Cc1cn([C@H]2C[C@H](N=[N+]=[N-])[C@@H](COC(=O)NCCSC(=O)OC[C@H]3O[C@@H](n4cc(C)c(=O)[nH]c4=O)C[C@@H]3N=[N+]=[N-])O2)c(=O)[nH]c1=O	EFV-resistant (RT K103R V179D P225H)	cytopathic effect / MTT	RT-K103R V179D P225H	MT-4	0.2
C/C=C/CSc1cc(NC(=S)c2ccsc2C)ccc1Cl	NL4-3 (RT V106I)	cytopathic effect / XTT	RT-V106I	CEM + CEM-SS	14
O=C1N(Cc2ccccc2)c2cscc2S(=O)(=O)N1Cc1ccccc1		syncytia	RT-Y188H	CEM	4.33
CCc1c(C)[nH]c(=O)c(N(C)C)c1C(=O)c1cc(Cl)cc(Cl)c1		cytopathic effect / MTT	RT-Y181C	MT-4	16
Cc1cn([C@@H]2O[C@H](CO[Si](C)(C)C(C)(C)C)C3(OS(=O)(=O)C=C3N)[C@H]2O[Si](C)(C)C(C)(C)C)c(=O)n(C)c1=O	IIIB TIBO R82913 STR-B02 (RT L100I E138K)	syncytia	RT-L100I E138K	CEM	>1670
CC(C)=CCOc1cc(NC(=S)c2ccoc2C)ccc1Cl	IIIB	cytopathic effect	RT-V179D	CEM	3
Nc1ncnc2c1ncn2CCOCP(=O)(O)O	IIIB-TIBO(0.5)(RT-L100I)	syncytia	RT-L100I	CEM	1.07
Cc1cn([C@H]2C=C[C@@H](COC(=O)NCCSC(=O)OC[C@@H]3CC[C@H](n4cnc5c(=O)[nH]cnc54)O3)O2)c(=O)[nH]c1=O	NNRTI-resistant (RT Y181C)	cytopathic effect / MTT	RT-Y181C	MT-4	0.3
Cc1occc1C(=S)Nc1ccc(Cl)c(/C=N/OC(C)(C)C)c1	IIIB	cytopathic effect	RT-V106A	CEM	3.13
CC(C)=CCN1Cc2cc(Cl)cc3[nH]c(=S)n(c23)C[C@@H]1C	IIIB TIBO R82913 STR-B22 (RT L100I Y188H)	syncytia	RT-L100I Y188H	CEM	>250
CC(C)c1nc(CN(C)C(=O)N[C@H](C(=O)N[C@@H](Cc2ccccc2)C[C@H](O)[C@H](Cc2ccccc2)NC(=O)OCc2cncs2)C(C)C)cs1	Clinical isolate	p24	PR-L10R N37D M46I I62V L63P A71V G73S V77I V82T L90M I93L	PBMC	>23
Cc1ccnc2c1NC(=O)c1cccnc1N2C1CC1		cytopathic effect	RT-Y188H	CEM	>340.9
CC(C)=CCN1Cc2cc(Cl)cc3[nH]c(=S)n(c23)C[C@@H]1C	MFE30(RT-P236L)	antigen	RT-P236L	MT-4	0.2
CCc1c(C)[nH]c(=O)c(N(C)C)c1C(=O)c1cccc(/C=C/C#N)c1		cytopathic effect / MTT	RT-L100I K103N	MT-4	25
CN[C@H]1CO[C@@H]2OCC[C@H](OC(=O)N[C@@H](Cc3cccc(OC)c3)[C@H](O)CN(CC(C)C)S(=O)(=O)c3ccc4nc(NC(C)C)sc4c3)[C@@H]21	NL4-3	p24 / luminescence	L10I M46L I54V V82A	MT-4	0.4
CCOC(=O)/C=C/c1cccc(C(=O)c2c(CC)c(C)[nH]c(=O)c2N(C)C)c1		cytopathic effect / MTT	RT-Y188L	MT-4	32.6
O=c1[nH]cnc2c1ncn2[C@H]1CC[C@@H](CO)O1	LAI	p24	RT-K65R	MT-2	3.1
Cc1cn([C@H]2C[C@H](N=[N+]=[N-])[C@@H](CO)O2)c(=O)[nH]c1=O	K65R(RT-K65R)	p24	RT-K65R	MT-2	1
Cc1cn([C@@H]2O[C@H](CO[Si](C)(C)C(C)(C)C)C3(OS(=O)(=O)C=C3N)[C@H]2O[Si](C)(C)C(C)(C)C)c(=O)n(C)c1=O	IIIB	cytopathic effect	RT-K103N	CEM	7.33
CC(=O)Oc1ccc(/C=C/C(=O)O[C@H](C(=O)O)[C@H](OC(=O)/C=C/c2ccc(OC(C)=O)c(OC(C)=O)c2)C(=O)O)cc1OC(C)=O	NL4-3	cytopathic effect / MTT	AR177-resistant	MT-4	>12
Nc1ncnc2c1ncn2CCOCP(=O)(O)O	K65R(RT-K65R)	p24	RT-K65R	MT-2	0.4
Fc1cccc(F)c1C1SCc2nc3ccccc3n21	IIIB	cytopathic effect / XTT	RT-K103N	CEM	11.2
Cc1cn([C@H]2C[C@H](N=[N+]=[N-])[C@@H](CO)O2)c(=O)[nH]c1=O	LAI	p24	RT-D67N K70R T215Y K219Q	MT-2	47.7
CC(C)=CCOCn1c(Cc2cc(C)cc(C)c2)c(C(C)C)c(=O)[nH]c1=O	IIIB	cytopathic effect / MTT	RT-Y181C	MT-4	100000
CC(C)(C)NC(=O)[C@@H]1CN(Cc2cccnc2)CCN1C[C@@H](O)C[C@@H](Cc1ccccc1)C(=O)N[C@H]1c2ccccc2C[C@H]1O	Clinical isolate	p24	PR-L10I V11I T12E I15V L19I R41K M46L L63 A71T V82A L90M	PBMC	16.2
CCOCn1c(Cc2ccccc2)c(C(C)C)c(=O)[nH]c1=O	IIIB	cytopathic effect / MTT	RT-K103N Y181C	MT-4	>5000
Nc1nc2c(ncn2[C@H]2CO[C@@H](CO)O2)c(=O)[nH]1	LAI	p24	RT-L74V	MT-2	4.2
CCOP(=O)(COc1ccc(C[C@H](NC(=O)O[C@H]2CO[C@H]3OCC[C@H]32)[C@H](O)CN(CC(C)C)S(=O)(=O)c2ccc(OC)cc2)cc1)OCC	IIIB	p24 / ELISA	M200I	MT-2	1.1
CCc1c(C)[nH]c(=O)c(N(C)C)c1Cc1cc(F)cc(F)c1		cytopathic effect / MTT	RT-K103N	MT-4	2.46
CCN1C(=O)N(Cc2cccc(Cl)c2)S(=O)(=O)c2cscc21		syncytia	RT-Y181C	CEM	>50.9
Cc1cn([C@H]2C=C[C@@H](CO)O2)c(=O)[nH]c1=O	EFV-resistant (RT K103R V179D P225H)	cytopathic effect / MTT	RT-K103R V179D P225H	MT-4	0.24
Cc1occc1C(=S)Nc1ccc(Cl)c(/C=N/OC(C)(C)C)c1	Diphenyl sulfone-resistant (RT-Y181C)	cytopathic effect / XTT	RT-Y181C	CEM + CEM-SS	5.5
CC(C)CN(C[C@@H](O)[C@H](Cc1ccccc1)NC(=O)O[C@H]1CCOC1)S(=O)(=O)c1ccc(N)cc1	NL4-3	p24 / luminescence	L10F M46I I54V V82A	MT-4	>27
CC(C)=CCN1Cc2cccc3[nH]c(=S)n(c23)C[C@@H]1C	IIIB nevirapine-resistant (RT Y181C)	syncytia	RT-Y181C	CEM	100
COc1ccc(S(=O)(=O)N(CC(C)C)C[C@@H](O)[C@H](Cc2ccccc2)NC(=O)O[C@H]2CO[C@H]3OCC(F)(F)[C@H]32)cc1	NL4-3		L10F M46I I54V V82A LPV resistant	MT-4	66
CCc1c(C)[nH]c(=O)c(N(C)C)c1C(=O)c1cccc(Br)c1		cytopathic effect / MTT	RT-L100I K103N	MT-4	37.5
CCOCn1c(Cc2cc(C)cc(C)c2)c(CC)c(=O)[nH]c1=O	IIIB TIBO R82150-resistant (RT L100I)	syncytia	RT-L100I	CEM	54
CC(C)CN(C[C@@H](O)[C@H](Cc1ccccc1)NC(=O)O[C@H]1CO[C@H]2OCC(F)(F)[C@H]21)S(=O)(=O)c1ccc(N)cc1	NL4-3		L10F M46I I54V V82A LPV resistant	MT-4	8
O=c1[nH]cnc2c1ncn2[C@H]1CC[C@@H](CO)O1	P119S(RT-P119S)	p24	RT-P119S	MT-2	0.9
Cc1ccnc2c1NC(=O)c1cccnc1N2C1CC1	NL4-3 (RT V108I)	cytopathic effect / XTT	RT-V108I	CEM + CEM-SS	3
CCc1c(C)[nH]c(=O)c(N(C)C)c1C(=O)c1cccc(C(C)=O)c1		cytopathic effect / MTT	RT-K103N	MT-4	12.6
N#CCN1C(=O)N(Cc2ccccc2)S(=O)(=O)c2cscc21		syncytia	RT-Y181C	CEM	>250
CCc1c(C)[nH]c(=O)c(N(C)C)c1C(=O)c1cccc(/C(C)=C/C#N)c1		cytopathic effect / MTT	RT-Y181C	MT-4	63
Fc1cccc(F)c1C1SCc2nc3ccccc3n21		cytopathic effect	RT-K103N	CEM	11.2
COC(=O)N[C@H](C(=O)N[C@@H](Cc1ccccc1)[C@@H](O)CN(Cc1ccc(-c2ccccn2)cc1)NC(=O)[C@@H](NC(=O)OC)C(C)(C)C)C(C)(C)C	NL4-3		M46I I50V N38K M36I GRL05010-resistant	MT-4	24
CCc1c(C)[nH]c(=O)c(N(C)C)c1Cc1cccc(/C=C/C#N)c1		cytopathic effect / MTT	RT-K103N Y181C	MT-4	80
Cc1ccnc(N2C(=O)CSC2c2c(Cl)cccc2Cl)n1		cytopathic effect	RT-E138K	CEM	1.56
O=c1[nH]cnc2c1ncn2[C@H]1CC[C@@H](CO)O1	IIIB	syncytia	RT-V179D	CEM	1.38
CCN[C@H]1CO[C@@H]2OCC[C@H](OC(=O)N[C@@H](Cc3cccc(OC)c3)[C@H](O)CN(CC(C)C)S(=O)(=O)c3ccc4nc(NC(C)C)sc4c3)[C@@H]21	NL4-3	p24 / luminescence	L23I E34Q K43I M46I I50L G51A L63P A71V V82A T91A	MT-4	0.9
Fc1cccc(F)c1[C@@H]1SCc2nc3ccccc3n21	IIIB	cytopathic effect / XTT	RT-Y188C	CEM	2.5
Cc1ccc(S(=O)(=O)N(CC(C)C)C[C@@H](O)[C@H](Cc2ccccc2)NC(=O)O[C@H]2CO[C@H]3OCC[C@H]32)cc1	IIIB	p24 / ELISA	K112M K113E V128I M200I H219P I401T R409K D437N L441P R41K	MT-2	7.3
Cc1cn([C@@H]2O[C@H](CO[Si](C)(C)C(C)(C)C)C3(OS(=O)(=O)C=C3N)[C@H]2O[Si](C)(C)C(C)(C)C)c(=O)n(C)c1=O	IIIB	cytopathic effect / XTT	RT-D138K	CEM	>533
O=c1[nH]cnc2c1ncn2[C@H]1CC[C@@H](CO)O1	IIIB-TIBO(0.5)(RT-L100I)	syncytia	RT-L100I	CEM	1.6
Nc1ncnc2c1ncn2CCOCP(=O)(O)O	IIIB TIBO R82913 STR-B02 (RT L100I E138K)	syncytia	RT-L100I E138K	CEM	2.43
CC(C)=CCN1c2cc(Cl)cc3[nH]c(=S)n(c23)C[C@@H]1C			RT-K70R Y181C	MT-4	12.5
Cc1cc(C)nc(N2C(=O)CSC2c2c(Cl)cccc2Cl)n1		cytopathic effect	RT-E138K	CEM	1.56
CC(C)CN(C[C@@H](O)[C@H](Cc1ccccc1)NC(=O)O[C@H]1CCO[C@H]2OCC[C@H]21)S(=O)(=O)c1ccc2nc(NC3CC3)sc2c1	NL4-3	p24 / luminescence	L10F K20T D30N K45I A71V V77I	MT-4	2.7
CCOCn1c(Cc2ccccc2)c(C(C)C)c(=O)[nH]c1=O		cytopathic effect / MTT	RT-K103N	MT-4	100
CN1C(=O)N(Cc2ccccc2)S(=O)(=O)c2cscc21		syncytia	RT-L100I	CEM	5.65
Cc1cn([C@H]2C[C@H](N=[N+]=[N-])[C@@H](CO)O2)c(=O)[nH]c1=O	3TC-resistant (RT M184V) Clinical isolate	p24	RT-M184V	PBMC	0.4

Conditions beyond the fields shown may differ between rows. Blank or dashed fields: not listed here.